Anti-infective test results gathered from many reports (values: NIAID ChemDB through PubChem).

CCn: concentration that lowers growth or viability of the cells by n%. Fold resistance has wild type as its base. Neighbouring rows are from separate reports. ICn: concentration for n% inhibition. Inhibition is in % at the dose shown (toxicity tests: loss of growth or viability). a–b is a range or a potency band. Blank or dashed fields: not listed here. ECn is the concentration giving n% inhibition of infection, replication or growth.

structure,kind,species,strain,changes,cell line,target,method,setting,read-out,dose,value
O=C1CN=C(c2ccccc2)c2ccccc2N1CCCC1CC(Br)=NO1,host protein,Human,-,-,-,Cathepsin B,fluorescence,-,inhibition,20 µM,0%
O=c1cc(-c2ccc(Oc3c(O)cc4oc(-c5ccc(O)cc5)cc(=O)c4c3O)cc2)oc2cc(O)cc(O)c12,toxicity,-,-,-,MA-104,-,visual reading,-,CC50,-,2.5 µg/mL
Cn1cc(NC(=O)c2cc(NC(=O)CCCCCCCCC(=O)Nc3cc(C(=O)Nc4cc(C(=O)NCCC(=N)N)n(C)c4)n(C)c3)cn2C)cc1C(=O)NCCC(=N)N,toxicity,-,-,-,VERO,-,-,-,CC50,-,44.95 µg/mL
O=C1CN=C(c2ccccc2)c2ccccc2N1CCC1CC(Br)=NO1,host protein,Human,-,-,-,Cathepsin B,fluorescence,-,inhibition,20 µM,0%
CCN(C(=O)OCc1ccccc1)C1CCN(CC[C@](C)(CN(C)S(=O)(=O)c2ccccc2)c2ccccc2)CC1,target,-,-,CCR5-Y108A,-,CCR5,radiometric,-,IC50,-,1.01 µM
CCCCCCCC/C=C/CCCCCCCC(=O)Nc1nnc(NC2CCC2)s1,target,Human cytomegalovirus,-,-,-,Polymerase,-,-,IC50,-,>25 µM
O=C(C1CCCCC1)N1C[C@H](CN2CCC(c3ccccc3)CC2)[C@@H](c2ccccc2)C1,target,-,-,CCR5-Y108A,-,CCR5,radiometric,-,fold resistance,-,42.17
CC(=O)c1cc(O)c(O)c(=O)cc1C,toxicity,-,-,-,HepG2-NTCP-12,-,MTS,3 d,CC50,-,42.5 µM
CCOC(=O)Nc1cc2[nH]c(-c3ccc4c(c3)OCO4)nc2c(NC(c2ccccc2)c2ccccc2)n1,culture,Encephalitozoon intestinalis,-,-,RK-13,-,-,-,inhibition,1 µg/mL,59%
COC1/C=C/OC2(C)Oc3c(C)c(O)c4c(c3C2=O)C(=O)C([N+](=O)[O-])=C(NC(=O)/C(C)=C\C=C\C(C)C(O)C(C)C(O)C(C)C(OC(C)=O)C1C)C4=O,toxicity,-,-,-,VERO,-,-,-,CC50,-,56.96 µg/mL
O=c1cc(-c2ccc(O)c(O)c2)oc2cc(O[C@@H]3O[C@H](CO)[C@@H](O)[C@H](O)[C@H]3OS(=O)(=O)O)cc(O)c12,host protein,Molluscum contagiosum virus,-,-,-,Topoisomerase,-,-,IC50,-,>200 µM
CCCCCCCCCCCNc1nnc(NC(=O)/C=C/c2ccccc2Cl)s1,target,Human cytomegalovirus,-,-,-,Polymerase,-,-,IC50,-,>25 µM
CCOC(=O)Nc1cc2c(nc(-c3ccccc3)c3nnnn32)c(NC(c2ccccc2)c2ccccc2)n1,culture,Encephalitozoon intestinalis,-,-,RK-13,-,-,-,inhibition,0.1 µg/mL,52.5%
CC(=O)N[C@H]1[C@@H](O[C@@H]2O[C@H](C[C@@H](O)[C@H]3O[C@@H](n4ccc(=O)[nH]c4=O)[C@H](O)[C@@H]3O)[C@H](O)[C@H](O)[C@H]2NC(=O)/C=C/CC(C)C)O[C@H](CO)[C@@H](O)[C@@H]1O,toxicity,-,-,-,VERO,-,-,-,CC50,-,23.1 µg/mL
O=c1cc(-c2ccc(O)c(-c3c(O)cc(O)c4c(=O)cc(-c5ccc(O)cc5)oc34)c2)oc2cc(O)cc(O)c12,toxicity,-,-,-,MA-104,-,visual reading,-,CC50,-,~56 µg/mL
Cc1c(CN(C)c2cccc3c2CCCC3)cnc2nc(N)nc(N)c12,culture,Encephalitozoon intestinalis,-,-,RK-13,-,-,-,inhibition,0.1 µg/mL,69.5%
COc1cc2c(cc1O)N=CC1CCC(O)N1C2=O,toxicity,-,-,-,VERO,-,-,-,CC50,-,17.08 µg/mL
O=C1C[C@@H](c2ccc(O)cc2)Oc2cc(O)c(-c3c(O)cc4c(c3O)C(=O)C[C@@H](c3ccc(O)cc3)O4)c(O)c21,toxicity,-,-,-,BSC-1,-,visual reading,-,CC50,-,<23 µg/mL
O=C(Nc1nnc(NCCc2ccccc2)s1)c1ccc([N+](=O)[O-])o1,target,Human cytomegalovirus,-,-,-,Polymerase,-,-,IC50,-,>25 µM
C[C@H]1[C@H](O)[C@@H](C)/C=C/C=C/C=C/C=C/C=C/C=C/C=C/[C@H](O[C@@H]2O[C@H](C)[C@@H](O)[C@H](N)[C@@H]2O)C[C@@H]2O[C@](O)(C[C@@H](O)C[C@@H](O)CC[C@H](O)[C@@H](O)C[C@@H](O)CC(=O)O[C@H]1C)C[C@H](O)[C@H]2C(=O)O,toxicity,-,-,-,HeLa,-,-,-,CC50,-,25 µg/mL
C=CCN(C(=O)OCc1ccc([N+](=O)[O-])cc1)C1CCN(CC[C@](C)(CN(C)S(=O)(=O)c2ccccc2)c2ccccc2)CC1,target,-,-,CCR5-Y251A,-,CCR5,radiometric,-,fold resistance,-,10.59
N=C1C=C(N)C(=O)c2ccccc21,toxicity,-,-,-,VERO,-,-,-,CC50,-,2.6 µg/mL
O=C(/C=C/c1ccccc1Cl)Nc1nnc(NCC(c2ccccc2)c2ccccc2)s1,target,Human cytomegalovirus,-,-,-,Polymerase,-,-,IC50,-,<25 µM
CC1(C)S[C@@H]2[C@H](NC(=O)Cc3ccccc3)C(=O)N2[C@H]1C(=O)NCCNC(=O)[C@@H]1N2C(=O)[C@@H](NC(=O)Cc3ccccc3)[C@H]2SC1(C)C,host protein,Sus domesticus,-,-,-,Pepsin,nucleotide incorporation,-,IC50,-,>500 µM
CO[C@H]1[C@@H](OC(=O)/C=C/C=C/C=C/C=C/C(=O)O)CC[C@@]2(CO2)[C@@H]1[C@@]1(C)O[C@@H]1CC=C(C)C,culture,Encephalitozoon intestinalis,-,-,RK-13,-,-,-,inhibition,0.0001 µg/mL,64.3%
O=C(/C=C/c1ccccc1Cl)Nc1nnc(NCCc2cnc[nH]2)s1,target,Human cytomegalovirus,-,-,-,Polymerase,-,-,IC50,-,<25 µM
CCC[C@H](NC(=O)[C@@H]1[C@H]2CCC[C@H]2CN1C(=O)[C@@H](NC(=O)[C@@H](NC(=O)c1cnccn1)C1CCCCC1)C(C)(C)C)C(=O)C(=O)NC1CC1,host protein,-,-,-,-,Plasmin,substrate cleavage,-,IC90,-,110 µM
CCO/N=C/c1ccc(OCCC2CCN(c3ccc(C)nn3)CC2)cc1,culture,Rhinovirus,107E (ICAM-1 receptor group 73),-,KB,-,neutral red,-,EC50,-,0.027 µM
C#CC[C@@H](C(=O)N[C@H](/C=C/C(=O)OCC)C[C@@H]1CCNC1=O)n1cccc(NC(=O)c2cc(C)on2)c1=O,culture,Rhinovirus,Clinical isolate 0 (serotype 39),-,H1-HELA,-,cytopathic effect / XTT,-,inhibition,0.142 µM,90%
CCCCCCCCCCCNc1nnc(NC(=O)CCCCCl)s1,target,Human cytomegalovirus,-,-,-,Polymerase,-,-,IC50,-,<25 µM
Cn1cc(NC(=O)c2cc(NC(=O)CCCCCCCCCCC(=O)Nc3cc(C(=O)Nc4cc(C(=O)NCCC(N)=[NH2+])n(C)c4)n(C)c3)cn2C)cc1C(=O)NCCC(N)=[NH2+],toxicity,-,-,-,VERO,-,-,-,CC50,-,41 µg/mL
Cc1ccnc2c1NC(=O)c1cccnc1N2C1CC1,culture,HIV-1,-,RT-K70R Y181C,MT-4,-,-,-,EC95,-,3 µM
CC1(C)S[C@H]([C@H](NC(=O)Cc2ccccc2)C(=O)NCc2ccccc2)N[C@H]1C(=O)NCCNC(=O)[C@@H]1N[C@@H]([C@H](NC(=O)Cc2ccccc2)C(=O)NCc2ccccc2)SC1(C)C,host protein,Sus domesticus,-,-,-,Pepsin,nucleotide incorporation,-,IC50,-,>500 µM
CCC1OC(=O)C(C)CC(C)C(OC2OCCCC2O)C(C)C(=O)/C=C/C1(C)O,toxicity,-,-,-,HeLa,-,-,-,CC50,-,1–10 µg/mL
O=C(Nc1nnc(NCCCCc2ccccc2)s1)c1cc2ccccc2s1,target,Human cytomegalovirus,-,-,-,Polymerase,-,-,IC50,-,<25 µM

The last 4 rows once more:

structure | kind | species | strain | changes | cell line | target | method | setting | read-out | dose | value
Cc1ccnc2c1NC(=O)c1cccnc1N2C1CC1 | culture | HIV-1 | - | RT-K70R Y181C | MT-4 | - | - | - | EC95 | - | 3 µM
CC1(C)S[C@H]([C@H](NC(=O)Cc2ccccc2)C(=O)NCc2ccccc2)N[C@H]1C(=O)NCCNC(=O)[C@@H]1N[C@@H]([C@H](NC(=O)Cc2ccccc2)C(=O)NCc2ccccc2)SC1(C)C | host protein | Sus domesticus | - | - | - | Pepsin | nucleotide incorporation | - | IC50 | - | >500 µM
CCC1OC(=O)C(C)CC(C)C(OC2OCCCC2O)C(C)C(=O)/C=C/C1(C)O | toxicity | - | - | - | HeLa | - | - | - | CC50 | - | 1–10 µg/mL
O=C(Nc1nnc(NCCCCc2ccccc2)s1)c1cc2ccccc2s1 | target | Human cytomegalovirus | - | - | - | Polymerase | - | - | IC50 | - | <25 µM